A mixed list of measured activities; the numbers were collected in NIAID ChemDB.

Shared fields: tests in culture; agent: HIV-1; cell line: MT-4; measure: fold resistance

Blank or dashed fields: not listed here. Neighbouring rows are from separate reports. Fold resistance has wild type as its base.

SMILES	strain or isolate	mutations	method	conditions	value
Cc1cn([C@H]2C[C@H](N=[N+]=[N-])[C@@H](CO)O2)c(=O)[nH]c1=O	IIIB-R (RT-Y181C)	RT-Y181C	cytopathic effect / MTT		0.697
c1cc(CCN2CCCNCCNCCCNCC2)ccc1CCN1CCCNCCNCCCNCC1	NL4-3	AMD3100-resistant	cytopathic effect / MTT		>0.164
CCc1c(C)[nH]c(=O)c(N(C)C)c1C(=O)c1cccc(/C=C/C#N)c1		RT-Y181C	cytopathic effect / MTT		16
O=C(Nc1nc2ccccc2[nH]1)c1cccc(CN2C(=O)N(CC3CC3)[C@H](Cc3ccccc3)[C@H](O)[C@@H](O)[C@H]2Cc2ccccc2)c1	HXB2	PR-V82F	p24		2.1
Cc1ccc(C(=O)N[C@H](C(=O)NCCCC[C@@H](CO)N(CC(C)C)S(=O)(=O)c2ccc(N)cc2)C(c2ccccc2)c2ccccc2)cn1	4596 PR-M46I V82T I84V L10R L63P	PR-M46I V82T I84V L10R L63P	cytopathic effect / MTT		1.42
Fc1c(F)c(CN2CCCNCCNCCCNCC2)c(F)c(F)c1CN1CCCNCCNCCCNCC1	NL4-3	AMD3100-resistant	cytopathic effect / MTT		5.33
CC(c1cc(=O)[nH]c(NC2CCCC2)n1)c1c(F)cccc1F		RT-Y181C	cytopathic effect / MTT		25
CCc1c(C)[nH]c(=O)c(N(C)C)c1Cc1cccc(/C=C/C#N)c1		RT-E138K	cytopathic effect / MTT		7.5
O=c1cc(Cc2c(F)cccc2F)nc(NC2CCCC2)[nH]1		RT-Y181C	cytopathic effect / MTT		10
Nc1cccc(CN2C(=O)N(Cc3cccc(N)c3)[C@H](Cc3ccccc3)[C@H](O)[C@@H](O)[C@H]2Cc2ccccc2)c1	HXB2	PR-V82F	p24		5.3
C/C=C/c1cccc(C(=O)c2c(CC)c(C)[nH]c(=O)c2N(C)C)c1		RT-K103N	cytopathic effect / MTT		31.6
CC(c1cc(=O)[nH]c(SC2CCCC2)n1)c1c(F)cccc1F		RT-Y181C	cytopathic effect / MTT		50
CCc1cc(NCc2nc3c(Cl)ccc(Cl)c3o2)c(=O)[nH]c1C	NL4-3	RT-K103N Y181C	p24		>30
C1CNCCNCCCN(CCCN2CCCNCCNCCCNCC2)CCNC1	NL4-3	AMD3100-resistant	cytopathic effect / MTT		>71.4
CCc1c(C)[nH]c(=O)c(N(C)C)c1C(=O)c1cc(Cl)cc(Cl)c1		RT-G190A	cytopathic effect / MTT		5.5
CCCCNc1nc(Cc2c(F)cccc2F)c(C)c(=O)[nH]1		RT-Y181C	cytopathic effect / MTT		70
N#Cc1ccc(Nc2nc(N)nc(Oc3c(Cl)cccc3Cl)n2)cc1	NNRTI-resistant (RT Y188L)	RT-Y188L	cytopathic effect / MTT		1066
COC(=O)c1cc(CN2CCCNCCNCCCNCC2)ccc1CN1CCCNCCNCCCNCC1	NL4-3	AMD3100-resistant	cytopathic effect / MTT		>30.9
CCc1c(C)[nH]c(=O)c(N(C)C)c1C(=O)c1cccc(/C(C)=C/C#N)c1		RT-Y181C	cytopathic effect / MTT		63
COc1cc(CN2CCCNCCNCCCNCC2)c(OC)cc1CN1CCCNCCNCCCNCC1	NL4-3	AMD3100-resistant	cytopathic effect / MTT		12
CC(C)=CCN1c2cc(Cl)cc3[nH]c(=S)n(c23)C[C@@H]1C		RT-D67N K70R T215Y K219Q L100I			2
CCc1c(C)[nH]c(=O)c(N(C)C)c1C(=O)c1cccc(CCC#N)c1		RT-K103N	cytopathic effect / MTT		4.3
CC(C)CN(C[C@@H](O)[C@H](Cc1ccccc1)NC(=O)O[C@H]1CCOC1)S(=O)(=O)c1ccc(N)cc1	NL4-3	L10F M46I I54V V82A LPV resistant			1
Cc1c(Cc2c(F)cccc2F)nc(NC2CCCC2)[nH]c1=O		RT-Y181C	cytopathic effect / MTT		42
CC(C)[C@H](NC(=O)OCc1ccccc1)C(=O)N[C@@H](Cc1ccccc1)[C@@H](O)[C@H](O)[C@H](Cc1ccccc1)NC(=O)[C@@H](NC(=O)OCc1ccccc1)C(C)C	MK639-resistant (PR L10F M46I L63P V82F I84V)	PR-L10F M46I L63P V82F I84V	p24		>150
Nc1ccn([C@H]2CC[C@@H](CO)O2)c(=O)n1	Clinical isolate	ddI-resistant		clinical isolate	1.125
CC(C)Nc1cccnc1N1CCN(C(=O)c2cc3cc(NS(C)(=O)=O)ccc3[nH]2)CC1		RT-K100I	cytopathic effect / MTT		39.7
CCc1c(C)[nH]c(=O)c(N(C)C)c1C(=O)c1cccc(/C=C/c2cccnc2)c1		RT-Y188L	cytopathic effect / MTT		52.6
O=C(Nc1ncc[nH]1)c1cccc(CN2C(=O)N(Cc3cccc(C(=O)Nc4ncc[nH]4)c3)[C@H](Cc3ccccc3)[C@H](O)[C@@H](O)[C@H]2Cc2ccccc2)c1	HXB2	PR-V82F	p24		1.6
c1ncc(CN2CCCNCCNCCCNCC2)cc1CN1CCCNCCNCCCNCC1	NL4-3	AMD3100-resistant	cytopathic effect / MTT		5
Nc1ccn([C@H]2CC[C@@H](CO)O2)c(=O)n1	HXB2-D184 (RT-M184V)	RT-M184V	p24		4.4
COC(=O)N[C@H](C(=O)N[C@@H](Cc1ccccc1)[C@@H](O)CN(Cc1ccc(-c2ccccn2)cc1)NC(=O)[C@@H](NC(=O)OC)C(C)(C)C)C(C)(C)C	NL4-3	L10I G48V I54V A71V I84V L90M SQV resistant			>250
Clc1cc(CN2CCCNCCNCCCNCC2)c(Cl)cc1CN1CCCNCCNCCCNCC1	NL4-3	AMD3100-resistant	cytopathic effect / MTT		18.9

Repeating the final 3 entries:

SMILES | strain or isolate | mutations | method | conditions | value
Nc1ccn([C@H]2CC[C@@H](CO)O2)c(=O)n1 | HXB2-D184 (RT-M184V) | RT-M184V | p24 |  | 4.4
COC(=O)N[C@H](C(=O)N[C@@H](Cc1ccccc1)[C@@H](O)CN(Cc1ccc(-c2ccccn2)cc1)NC(=O)[C@@H](NC(=O)OC)C(C)(C)C)C(C)(C)C | NL4-3 | L10I G48V I54V A71V I84V L90M SQV resistant |  |  | >250
Clc1cc(CN2CCCNCCNCCCNCC2)c(Cl)cc1CN1CCCNCCNCCCNCC1 | NL4-3 | AMD3100-resistant | cytopathic effect / MTT |  | 18.9